Anti-infective test results gathered from many reports (values: NIAID ChemDB through PubChem).

Shared fields: tests on isolated targets; agent: HIV; target: Reverse transcriptase

Fold resistance: result on the changed form divided by that on wild type. Percent inhibition refers to the dose given; in toxicity tests it is the harm to the cells. ICn is the concentration giving n% inhibition. An empty or dashed field is not shown. Conditions beyond the fields shown may differ between rows.

| SMILES | read by | mutations | endpoint | tested at | value |
|---|---|---|---|---|---|
| Cc1c(C(C)c2c(F)cccc2F)nc(NC2CCCC2)[nH]c1=O | nucleotide incorporation / radiometric | RT-L100I | IC50 | - | 0.5 µM |
| Cc1cn([C@H]2C=C[C@@H](COP(=O)(O)OP(=O)(O)OP(=O)(O)O)O2)c(=O)[nH]c1=O | nucleotide incorporation / radiometric | RT-N137E | fold resistance | - | 0.2 |
| Nc1nc2c(ncn2[C@H]2CC[C@@H](COP(=O)(O)OP(=O)(O)OP(=O)(O)O)O2)c(=O)[nH]1 | nucleotide incorporation | RT-Y181C | IC50 | - | 0.03 µM |
| CC(C)=CCN1Cc2cccc3[nH]c(=S)n(c23)C[C@@H]1C | - | RT-E138K(P51 ONLY) | fold resistance | - | 2.17 |
| Cc1cn([C@@H]2O[C@H](CO[Si](C)(C)C(C)(C)C)[C@@]3(OS(=O)(=O)C=C3N)[C@H]2O[Si](C)(C)C(C)(C)C)c(=O)[nH]c1=O | nucleotide incorporation | RT-E138K | inhibition | 150 µM | 30% |
| CC(C)Nc1cccnc1N1CCN(C(=O)c2cc3ccccc3[nH]2)CC1 | nucleotide incorporation | RT-Y181I | fold resistance | - | 89.7 |
| COc1ccc2c(c1)N(C(=O)OC(C)C)[C@@H](CSC)C(=S)N2 | RT activity | RT-D67N K70R T215F K219Q Y181C | fold resistance | - | 4.5 |
| Nc1ccn([C@H]2CC[C@@H](COP(=O)(O)OP(=O)(O)OP(=O)(O)O)O2)c(=O)n1 | RT activity | - | Ki | - | 0.29 µM |
| CC(C)=CCOc1cc(NC(=S)c2ccoc2C)ccc1Cl | nucleotide incorporation / radiometric | RT-N137H | fold resistance | - | 0.44 |
| Cc1cn([C@@H]2O[C@H](CO[Si](C)(C)C(C)(C)C)C3(OS(=O)(=O)C=C3N)[C@H]2O[Si](C)(C)C(C)(C)C)c(=O)n(C)c1=O | - | RT-E138K(P66 ONLY) | fold resistance | - | 1 |
| NS(=O)(=O)c1ccc(CCNC(=O)Cc2cccs2)cc1 | nucleotide incorporation | - | IC50 | - | 1.2 µM |
| Nc1ncnc2c1ncn2[C@H]1CC[C@@H](COP(=O)(O)OP(=O)(O)OP(=O)(O)O)O1 | - | - | Ki | - | 0.021 µM |
| CO[P@](=O)(c1cc(C)cc(/C=C/C#N)c1)c1c(C(N)=O)[nH]c2ccc(Cl)cc12 | - | L1001/K103N | IC50 | - | 0.4 µM |
| Nc1nc2c(ncn2[C@H]2C=C[C@@H](COP(=O)(O)OP(=O)(O)OP(=O)(O)O)C2)c(=O)[nH]1 | - | - | Ki | - | 0.11 µM |
| c1ccc(C2SCc3nc4ccccc4n32)cc1 | - | RT-K103N Y188L | IC50 | - | >50 µM |
| Cc1cn([C@@H]2O[C@H](CO[Si](C)(C)C(C)(C)C)C3(OS(=O)(=O)C=C3N)[C@H]2O[Si](C)(C)C(C)(C)C)c(=O)n(C)c1=O | nucleotide incorporation | RT-V106A | IC50 | - | >750 µM |
| Nc1nc(=O)n([C@H]2CS[C@@H](COP(=O)(O)OP(=O)(O)OP(=O)(O)O)O2)cc1F | - | - | Ki | - | 1.2 µM |
| CC[C@H]1C(=O)Nc2ccc(F)cc2N1C(=O)OC(C)C | nucleotide incorporation / radiometric | RT-N137T | IC50 | - | 0.03 µM |
| COc1ccc2c(c1)N(C(=O)OC(C)C)[C@@H](CSC)C(=S)N2 | RT activity | RT-V106A P225H | Ki | - | 0.028 µM |

2 of the rows above, restated:

SMILES | read by | mutations | endpoint | tested at | value
Nc1nc(=O)n([C@H]2CS[C@@H](COP(=O)(O)OP(=O)(O)OP(=O)(O)O)O2)cc1F | - | - | Ki | - | 1.2 µM
COc1ccc2c(c1)N(C(=O)OC(C)C)[C@@H](CSC)C(=S)N2 | RT activity | RT-V106A P225H | Ki | - | 0.028 µM